A mixed list of measured activities; the numbers were collected in NIAID ChemDB.

Common to all: tests in culture; organism: HIV-1; read by: RT activity; measure: inhibition

Blank or dashed fields: not listed here. Percent inhibition refers to the dose given; in toxicity tests it is the harm to the cells. Neighbouring rows are from separate reports.

Cc1cn([C@H]2C[C@H](N=[N+]=[N-])[C@@H](COP(=O)(O)OC[C@H]3OC(O)[C@H](O)[C@@H](O)[C@@H]3O)O2)c(=O)[nH]c1=O ; conditions: 15 d ; strain: LAV-Bru ; cells: CEM ; dose: 25 µM ; result: 98%
Nc1nc(=O)n([C@@H]2C[C@H](O)[C@@H](CO)O2)cc1-c1cccnc1 ; strain: IIIB ; cells: H9 ; dose: 10 µg/mL ; result: 25%
CCCCCCCCCCCCCCCCOCC(Cl)COP(=O)([O-])OCC[N+](C)(C)C ; strain: IIIB ; cells: H9 ; dose: 3 µM ; result: 89%
COc1ccccc1CN[C@H]1C2CCN(CC2)[C@H]1C(c1ccccc1)c1ccccc1 ; strain: UG024 Primary X4 isolate ; cells: Macrophage + Monocytes/macrophages ; dose: 0.1 µM ; result: 0%
CC[C@@]1(O)C(=O)OCc2c1cc1n(c2=O)Cc2cc3ccccc3nc2-1 ; strain: IIIB ; cells: H9 ; dose: 0.005 µM ; result: 89%
Cc1cn([C@H]2C[C@H](N=[N+]=[N-])[C@@H](CO)O2)c(=O)[nH]c1=O ; conditions: 14 d ; strain: LAV-Bru ; cells: U-937 ; dose: 25 µM ; result: 0%
O=C(O)P(=O)(O)O ; conditions: 6 d ; strain: IIIB ; cells: PBL ; dose: 128 µM ; result: 99%
Nc1nc(=O)n([C@@H]2C[C@H](O)[C@@H](CO)O2)cc1-c1ccccc1 ; strain: IIIB ; cells: H9 ; dose: 10 µg/mL ; result: 30%
Cc1cn([C@H]2C[C@H](N=[N+]=[N-])[C@@H](CO)O2)c(=O)[nH]c1=O ; strain: IIIB ; cells: PBL (resting) + PBL ; dose: 0.03 µM ; result: 50%
Nc1nc(=O)n([C@H]2C[C@H](O)[C@@H](CO)O2)cc1-c1ccncc1 ; strain: IIIB ; cells: H9 ; dose: 10 µg/mL ; result: 20%
Nc1ccn([C@H]2CC[C@@H](CO)O2)c(=O)n1 ; strain: BZ X4 ; cells: PBL (activated) + PBL ; dose: 0.2 µM ; result: 96%
Nc1nc(=O)n([C@@H]2C[C@H](O)[C@@H](CO)O2)cc1-c1ccc(-c2ccccc2)s1 ; strain: IIIB ; cells: H9 ; dose: 10 µg/mL ; result: <35%
CCCCCCCCCCCCCCCCOP(=O)(OC[C@H]1OC(O)[C@H](O)[C@@H](O)[C@@H]1O)OC[C@H]1O[C@@H](n2cc(C)c(=O)[nH]c2=O)C[C@@H]1N=[N+]=[N-] ; conditions: 26 d ; strain: LAV-Bru ; cells: CEM ; dose: 1 µM ; result: 0%
O=c1[nH]cnc2c1ncn2[C@H]1CC[C@@H](CO)O1 ; strain: BZ X4 ; cells: PBL (activated) + PBL ; dose: 9 µM ; result: 51%
Nc1nc(=O)n([C@H]2C[C@H](O)[C@@H](CO)O2)cc1-c1ccco1 ; strain: IIIB ; cells: H9 ; dose: 10 µg/mL ; result: 25%

Again, the opening 2 rows:

SMILES	conditions	strain	cells	dose	result
Cc1cn([C@H]2C[C@H](N=[N+]=[N-])[C@@H](COP(=O)(O)OC[C@H]3OC(O)[C@H](O)[C@@H](O)[C@@H]3O)O2)c(=O)[nH]c1=O	15 d	LAV-Bru	CEM	25 µM	98%
Nc1nc(=O)n([C@@H]2C[C@H](O)[C@@H](CO)O2)cc1-c1cccnc1		IIIB	H9	10 µg/mL	25%